B1: YB9-258 (antibody, V domains shown)
VH: EVQLVESGGGLIQPGGSLRLSCAASGLTVSSNYMHWVRQAPGKGLEWVSVLYAGGSAFYADSVKGRFTISRNNSKNTLYLQMNSLRAEDTAIYYCARGLGDYLDSWGQGTLVTVSS
VL: DIQMTQSPSSVSASVGDRVTITCRASQGIGSWLAWYQQKPGKAPQLLIYAASTLQSGVPPRFSGSGSGTDFTLTITSLQPEDFASYYCQQANSVLALTFGGGTKVEIK
B2: YB13-292 (antibody, V domains shown)
VH: EVQLVESGGGLVKPGGSLRLSCAASGFSFITYNMNWVRQAPGKGLEWVSSISSNILSSTSYIYYADSVKGRFTISRDDAANSLFLQMNSLRVEDTAQYYCARTRSRSVRNCTSATCPVDAFDLWGQGTMVIVSS
VL: DIVLTQSPLSLPVTPGEPASISCRSSQSLLRSNGYNYLDWYLQKPGQSPHLLIYLGSNRASGVPDRFSGSGSGTDFTLKISRVEAEDVGVYYCMQALQTPYTFGQGTNLEIK

How the values were obtained:
Test in all cases: cell-based or functional assay
SARS-CoV-2 wildtype S1 = SARS-CoV-2 wildtype S1 (SARS-CoV-2 wildtype (Wuhan), UniProt P0DTC2)
[1] = target: SARS-CoV-2 Delta (B.1.617.2) S1 (SARS-CoV-2 Delta (B.1.617.2), strain)
[2] = target: SARS-CoV-2 Beta (B.1.351) S1 (SARS-CoV-2 Beta (B.1.351), strain)

Binder	Pseudovirus Variants (μg/mL), WT, IC50 (neutralisation on 293T-hACE2 cells) (SARS-CoV-2 wildtype S1) [µg/mL]	Authentic Virus (μg/mL), IC50, Delta (cytopathic effect on Vero-E6 cells) [1] [µg/mL]	Pseudovirus Variants (μg/mL), Delta, IC50 (neutralisation on 293T-hACE2 cells) [1] [µg/mL]	Pseudovirus Variants (μg/mL), Beta, IC50 (neutralisation on 293T-hACE2 cells) [2] [µg/mL]
B1	0.238	0.0274	0.02	–
B2	–	< 0.004	0.02	0.009

Source: paper PMC9951844 (Nature Communications, 2023)
